Results of unrelated studies side by side (data: NIAID ChemDB).

All rows: tests in culture; agent: Vaccinia virus; measure: EC50

a–b is a range or a potency band.

{"smiles": "CSCC1=C[C@@H](n2cnc3c(N)ncnc32)[C@H](O)[C@@H]1O", "cells": "PRK", "result": "70 µg/mL"}
{"smiles": "CCCc1cn([C@@H]2O[C@H](COP(=O)(O)O)[C@@H](O)[C@H]2O)c(=O)nc1N", "result": ">400 µg/mL"}
{"smiles": "CN1CCN(Cc2cn([C@H]3C[C@H](O)[C@@H](CO)O3)c(=O)[nH]c2=O)CC1", "cells": "HSF", "result": "≥200 µg/mL"}
{"smiles": "O=c1[nH]c(=O)n([C@@H]2C[C@H](CO)[C@@H](O)C2)cc1I", "cells": "PRK", "result": "40 µg/mL"}
{"smiles": "Nc1ncnc2c1ncn2C[C@H](O)CO", "cells": "PRK", "result": "10–40 µg/mL"}
{"smiles": "O=c1[nH]cnc2c1ncn2C1C[C@H](CO)[C@@H](CO)C1", "cells": "E6SM", "result": ">100 µg/mL"}
{"smiles": "N=C(N)CCNC(=O)c1c[nH]c(NC(=O)c2c[nH]c(NC(=O)CC(=O)Nc3c[nH]c(C(=O)Nc4c[nH]c(C(=O)NCCC(=N)N)c4)c3)c2)c1", "cells": "PRK", "result": "0.2 µg/mL"}
{"smiles": "Nc1nccc2c1ncn2[C@@H]1C[C@H](CO)[C@@H](O)[C@H]1O", "cells": "HEL", "result": "0.7 µg/mL"}
{"smiles": "OC[C@H]1O[C@@H](c2ccccc2)C[C@@H]1O", "cells": "E6SM", "result": ">400 µg/mL"}
{"smiles": "Nc1ncnc2c1ncn2C[C@H](O)CO", "cells": "PRK", "result": "10–20 µg/mL"}
{"smiles": "O=S(=O)(O)c1c2ccccc2c(-c2c3nc(c(-c4c5ccccc5c(S(=O)(=O)O)c5ccccc45)c4ccc([nH]4)c(-c4c5ccccc5c(S(=O)(=O)O)c5ccccc45)c4nc(c(-c5c6ccccc6c(S(=O)(=O)O)c6ccccc56)c5ccc2[nH]5)C=C4)C=C3)c2ccccc12", "cells": "BSC-40", "strain": "WR", "result": "0.15 µg/mL"}
{"smiles": "CC(C)c1cn([C@@H]2O[C@H](COP(=O)(O)O)[C@@H](O)[C@H]2O)c(=O)nc1N", "result": ">400 µg/mL"}
{"smiles": "N=C(N)CCNC(=O)c1c[nH]c(NC(=O)c2c[nH]c(NC(=O)c3c[nH]c(NC(=O)CCC(=O)Nc4c[nH]c(C(=O)Nc5c[nH]c(C(=O)Nc6c[nH]c(C(=O)NCCC(=N)N)c6)c5)c4)c3)c2)c1", "cells": "PRK", "result": "4 µg/mL"}
{"smiles": "Nc1nc2c(ncn2CC(CO)OCP(=O)(O)O)c(=O)[nH]1", "cells": "VERO", "result": "0.8 µM"}
{"smiles": "COCC1=C[C@@H](n2cnc3c(N)ncnc32)[C@H](O)[C@@H]1O", "cells": "PRK", "result": "20 µg/mL"}
{"smiles": "CCCCOC[C@H]1O[C@@H]2CC(C)(C)C[C@@H]2[C@H]1OCCCC", "cells": "E6SM", "result": ">48 µg/mL"}
{"smiles": "O=c1[nH]c(=O)n([C@H]2C[C@H](O)[C@@H](CO)O2)cc1Br", "cells": "Primary rabbit kidney cells", "result": "0.32 µM"}
{"smiles": "NC[C@H]1C[C@@H](n2cnc3c(N)ncnc32)[C@H](O)[C@@H]1O", "cells": "HFF", "result": "76.5 µg/mL"}
{"smiles": "OC[C@H]1O[C@@H](c2cncc(Br)c2)[C@@H](O)[C@@H]1O", "cells": "E6SM", "result": "≥100 µg/mL"}
{"smiles": "Nc1ncnc2c1ncn2[C@H]1CO[C@H](CO)[C@@H](O)C1", "cells": "E6SM", "result": ">20 µg/mL"}
{"smiles": "Cc1cn([C@H]2C[C@H](O)[C@]3(CO)C[C@H]23)c(=O)[nH]c1=O", "cells": "HFF", "strain": "Copenhagen", "result": "0.55 µg/mL"}
{"smiles": "Nc1ccn([C@H]2CO[C@H](CO)[C@@H](O)C2)c(=O)n1", "cells": "E6SM", "result": "20 µg/mL"}
{"smiles": "N#Cc1cncc([C@@H]2O[C@H](CO)[C@@H](O)[C@@H]2O)c1", "cells": "E6SM", "result": "≥100 µg/mL"}
{"smiles": "CN(C)CCN1C(=O)c2cccc3cc(N)cc(c23)C1=O", "cells": "VERO", "result": ">4 µg/mL"}
{"smiles": "O=C(CI)NCc1cn([C@H]2C[C@H](O)[C@@H](CO)O2)c(=O)[nH]c1=O", "cells": "HSF", "result": "100 µg/mL"}
{"smiles": "Nc1ncnc2c1ncn2[C@H]1C[C@@H](O)[C@H](O)[C@@H]1O", "cells": "E6SM", "result": "0.7 µg/mL"}
{"smiles": "O=c1[nH]c(=O)n([C@H]2C[C@H](O)[C@@H](COP(=O)(O)O)O2)cc1I", "cells": "PRK", "result": "0.07 µg/mL"}
{"smiles": "Cc1ccn2c(C3OCCO3)cnc2c1", "cells": "E6SM", "result": ">1000 µM"}
{"smiles": "CCc1cn([C@H]2C[C@H](O)[C@@H](CO)O2)c(=O)[nH]c1=O", "cells": "HSF", "result": "2.7 µg/mL"}
{"smiles": "Nc1nccc2c1nnn2[C@H]1CC[C@@H](CO)O1", "cells": "VERO", "result": ">387 µM"}
{"smiles": "Cc1cn([C@@H]2O[C@H](CO)[C@](O)(C(F)(F)F)[C@H]2O)c(=O)[nH]c1=O", "cells": "E6SM", "result": ">400 µg/mL"}
{"smiles": "O=c1[nH]c(=O)n([C@H]2C[C@H](O)[C@@H](CO)O2)cc1I", "cells": "PRK", "result": "0.07 µg/mL"}
{"smiles": "Nc1nccc2c1ncn2[C@@H]1C=C(CO)[C@@H](O)[C@H]1O", "cells": "VERO", "strain": "Lederle CA", "result": "0.3 µg/mL"}
{"smiles": "OC[C@H]1O[C@@H](c2cncc(Br)c2)[C@@H](O)[C@H]1O", "cells": "E6SM", "result": "≥100 µg/mL"}
{"smiles": "Nc1nccc2nn([C@H]3C[C@H](O)[C@@H](CO)O3)nc12", "cells": "VERO", "result": "200 µM"}
{"smiles": "O=c1[nH]c(=O)n([C@H]2C[C@H](O)[C@@H](CO)O2)cc1F", "cells": "Primary rabbit kidney cells", "result": "0.4 µM"}
{"smiles": "O=c1[nH]c(=O)n([C@H]2C[C@H](O)[C@@H](CO)O2)cc1I", "cells": "PRK", "result": "0.2 µg/mL"}
{"smiles": "CC(C)CCOC(=O)C(O)Cn1cnc2c(N)ncnc21", "cells": "Primary rabbit kidney cells", "result": "20 µg/mL"}
{"smiles": "CCc1nc(-n2c(C)nc3ccc(Br)cc3c2=O)nc(N)c1-c1ccc(Cl)cc1", "cells": "E6SM", "result": "16 µg/mL"}
{"smiles": "NC(=O)c1cncc([C@@H]2O[C@H](CO)[C@H](O)[C@@H]2O)c1", "cells": "E6SM", "result": "≥100 µg/mL"}
{"smiles": "O=c1[nH]c(=O)n([C@H]2C[C@H](O)[C@@H](CO)O2)cc1/C=C\\Cl", "cells": "PRK", "result": "7 µg/mL"}
{"smiles": "Nc1ncnc2c1nnn2[C@@H]1O[C@H](CO)[C@@H](O)[C@H]1O", "cells": "VERO", "result": "1.5 µM"}
{"smiles": "CCc1nc(-n2c(-c3ccccc3)nc3ccc(Br)cc3c2=O)nc(N)c1-c1ccc(Cl)cc1", "cells": "E6SM", "result": "1.92 µg/mL"}
{"smiles": "O=C(NCc1ccc(Cl)cc1)c1cn(N2CCOCC2)c2ccc(CN3CCOCC3)cc2c1=O", "cells": "HFF", "result": "45.4 µM"}
{"smiles": "Nc1ncnc2c1ncn2[C@@H]1O[C@H](COP(=O)(O)O[C@@H]2[C@H](O)[C@@H](COP(=O)(O)O[C@@H]3[C@H](O)[C@@H](COP(=O)(O)OP(=O)(O)OP(=O)(O)O)O[C@H]3n3cnc4c(N)ncnc43)O[C@H]2n2cnc3c(N)ncnc32)[C@@H](O)[C@H]1O", "cells": "E6SM", "result": "70 µg/mL"}
{"smiles": "COc1cc(Cc2cnc(-n3c(C)nc4ccc(Br)cc4c3=O)nc2N)cc(OC)c1OC", "cells": "E6SM", "result": ">80 µg/mL"}
{"smiles": "Nc1ncnc2c1ncn2CCCC(O)CF", "cells": "ESM", "result": ">400 µg/mL"}
{"smiles": "COc1nc(=O)n([C@H]2C[C@H](O)[C@@H](CO)O2)cc1/C=C/Cl", "cells": "PRK", "result": "150 µg/mL"}
{"smiles": "C[C@@]1(O)[C@@H](CO)O[C@@H](n2cnc3c(N)ncnc32)[C@@H]1O", "cells": "E6SM", "result": "4 µg/mL"}
{"smiles": "N=C(N)CCNC(=O)c1c[nH]c(NC(=O)c2c[nH]c(NC(=O)CCCCCCC(=O)Nc3c[nH]c(C(=O)Nc4c[nH]c(C(=O)NCCC(=N)N)c4)c3)c2)c1", "cells": "PRK", "result": "0.2 µg/mL"}
{"smiles": "Nc1ncnc2c1ncn2[C@@H]1O[C@H](COP(=O)(O)O[C@@H]2[C@H](O)[C@@H](COP(=O)(O)O[C@@H]3[C@H](O)[C@@H](COP(=O)(O)OP(=O)(O)OC[C@@H]4OC(O)[C@H](O)[C@H](O)[C@H]4O)O[C@H]3n3cnc4c(N)ncnc43)O[C@H]2n2cnc3c(N)ncnc32)[C@@H](O)[C@H]1O", "cells": "PRK", "result": "100 µg/mL"}
{"smiles": "OC[C@H]1O[C@@H](n2nnc3c(Cl)nccc32)C[C@@H]1O", "cells": "VERO", "result": ">368 µM"}
{"smiles": "[N-]=[N+]=N[C@H]1[C@@H](F)[C@H](n2cnc3c(N)ncnc32)O[C@@H]1CO", "cells": "PRK", "result": "300 µg/mL"}
{"smiles": "CCc1cn([C@H]2C[C@H](O)[C@@H](COP(=O)(O)O)O2)c(=O)[nH]c1=O", "cells": "HSF", "result": "2 µg/mL"}
{"smiles": "OC[C@H]1O[C@H](c2cncc(Br)c2)[C@@H](O)[C@H]1O", "cells": "E6SM", "result": "≥100 µg/mL"}
{"smiles": "Nc1ncnc2c1ncn2[C@@H]1O[C@H](C=O)C[C@H]1O", "cells": "HEL", "result": "400 µg/mL"}
{"smiles": "O=c1[nH]c(=O)n(C2C[C@H](CO)[C@@H](CO)C2)cc1I", "cells": "E6SM", "result": ">100 µg/mL"}
{"smiles": "Nc1ccnc(O[C@H]2CO[C@H](CO)[C@@H](O)C2)n1", "cells": "E6SM", "result": ">20 µg/mL"}
{"smiles": "O=c1ccn([C@@H]2C[C@H](CO)C[C@H]2CO)c(=O)[nH]1", "cells": "E6SM", "result": ">100 µg/mL"}
{"smiles": "Cc1cn(CCCC(O)CF)c(=O)[nH]c1=O", "cells": "ESM", "result": ">400 µg/mL"}
{"smiles": "Nc1nccc2nnn([C@@H]3O[C@H](CO)[C@@H](O)[C@H]3O)c12", "cells": "VERO", "result": ">398 µM"}
{"smiles": "N#Cc1cncc([C@@H]2O[C@H](CO)[C@H](O)[C@@H]2O)c1", "cells": "E6SM", "result": "≥100 µg/mL"}
{"smiles": "CN(C)Cc1cn([C@H]2C[C@H](O)[C@@H](CO)O2)c(=O)[nH]c1=O", "cells": "PRK", "result": ">200 µg/mL"}
{"smiles": "Cc1cccn2c(C3SCCS3)cnc12", "cells": "E6SM", "result": ">1000 µM"}
{"smiles": "NC(=O)c1cncc([C@@H]2O[C@H](CO)[C@@H](O)[C@@H]2O)c1", "cells": "E6SM", "result": "≥100 µg/mL"}
{"smiles": "CC(=O)N[C@H]1C[C@@H](n2cnc3c(N)ncnc32)[C@H](O)[C@@H]1O", "cells": "HFF", "result": ">100 µg/mL"}
{"smiles": "Nc1nc(=O)n([C@H]2C[C@H](O)[C@@H](CO)O2)cc1/C=C/Br", "cells": "Primary rabbit kidney cells", "result": "200 µg/mL"}
{"smiles": "CC1(CO)CCC(Cn2cnc3c(N)nc(N)nc32)C1(C)C", "cells": "E6SM", "result": "150 µg/mL"}
{"smiles": "Cc1ccn2c(C3SCCS3)cnc2c1", "cells": "E6SM", "result": ">1000 µM"}
{"smiles": "CC1(CO)CCC(Cn2nnc3c(N)nc(N)nc32)C1(C)C", "cells": "E6SM", "result": "30 µg/mL"}
{"smiles": "CCCCCCCCc1cn([C@@H]2O[C@H](COP(=O)(O)O)[C@@H](O)[C@H]2O)c(=O)nc1N", "result": ">400 µg/mL"}
{"smiles": "Cc1cn([C@H]2C[C@H](N=[N+]=[N-])[C@@H]([C@@H](C)O)O2)c(=O)[nH]c1=O", "result": "300 µg/mL"}
{"smiles": "CC1(CO)CCC(Cn2nnc3c(=O)[nH]c(N)nc32)C1(C)C", "cells": "E6SM", "result": ">200 µg/mL"}

A second listing of 9 rows from above:

Nc1ncnc2c1ncn2[C@@H]1O[C@H](COP(=O)(O)O[C@@H]2[C@H](O)[C@@H](COP(=O)(O)O[C@@H]3[C@H](O)[C@@H](COP(=O)(O)OP(=O)(O)OC[C@@H]4OC(O)[C@H](O)[C@H](O)[C@H]4O)O[C@H]3n3cnc4c(N)ncnc43)O[C@H]2n2cnc3c(N)ncnc32)[C@@H](O)[C@H]1O ; cells: PRK ; result: 100 µg/mL
CCc1cn([C@H]2C[C@H](O)[C@@H](COP(=O)(O)O)O2)c(=O)[nH]c1=O ; cells: HSF ; result: 2 µg/mL
Cc1cn([C@@H]2O[C@H](CO)[C@](O)(C(F)(F)F)[C@H]2O)c(=O)[nH]c1=O ; cells: E6SM ; result: >400 µg/mL
O=C(NCc1ccc(Cl)cc1)c1cn(N2CCOCC2)c2ccc(CN3CCOCC3)cc2c1=O ; cells: HFF ; result: 45.4 µM
O=c1[nH]c(=O)n([C@@H]2C[C@H](CO)[C@@H](O)C2)cc1I ; cells: PRK ; result: 40 µg/mL
CC(C)c1cn([C@@H]2O[C@H](COP(=O)(O)O)[C@@H](O)[C@H]2O)c(=O)nc1N ; result: >400 µg/mL
COCC1=C[C@@H](n2cnc3c(N)ncnc32)[C@H](O)[C@@H]1O ; cells: PRK ; result: 20 µg/mL
CSCC1=C[C@@H](n2cnc3c(N)ncnc32)[C@H](O)[C@@H]1O ; cells: PRK ; result: 70 µg/mL
N=C(N)CCNC(=O)c1c[nH]c(NC(=O)c2c[nH]c(NC(=O)CCCCCCC(=O)Nc3c[nH]c(C(=O)Nc4c[nH]c(C(=O)NCCC(=N)N)c4)c3)c2)c1 ; cells: PRK ; result: 0.2 µg/mL

ECn is the concentration giving n% inhibition of infection, replication or growth. Conditions beyond the fields shown may differ between rows.